Compound potency records, mixed from different reports. Data source: NIAID ChemDB in PubChem.

Common to all: whole-cell or culture tests; organism: HIV-1; method: cytopathic effect; measure: EC50

a–b is a range or a potency band. An empty or dashed field is not shown. Lines come from different laboratories, so protocols vary. ECn: concentration that inhibits the pathogen or its effect by n%.

smiles	changes	cells	strain or isolate	result
Nc1nc(=O)n([C@H]2C[C@H](F)[C@@H](CO)O2)cc1Br		MT-4		5 µM
CC(C)CCC[C@@H](C)[C@H]1CC[C@H]2[C@@H]3C=C[C@H]4C[C@@H](OP(=O)(O)OCCC=C(c5cc(Cl)c(O)c(C(=O)O)c5)c5cc(Cl)c(O)c(C(=O)O)c5)CC[C@]4(C)[C@H]3CC[C@]12C		CEM + CEM-SS	RF	>39 µM
COP(=O)(c1cc(C)cc(CCC#N)c1)c1c(C(N)=O)[nH]c2ccc(Cl)cc12		MT-4	BH10	0.0002 µM
CC(C)CCC[C@@H](C)[C@H]1CC[C@H]2[C@@H]3CC[C@H]4C[C@@H](OP(=O)(O)OCCC=C(c5cc(Cl)c(O)c(C(=O)O)c5)c5cc(Cl)c(O)c(C(=O)O)c5)CC[C@]4(C)[C@H]3CC[C@]12C		CEM + CEM-SS	RF	>40 µM
OC[C@H]1O[C@@H](n2nnc3c(Cl)nccc32)[C@H](O)[C@@H]1O		MT-4		>359 µM
CCCN1C(=O)N(CCC)N(C(=O)C(C)(C)C)C[C@@H](O)[C@H]1Cc1ccccc1		MT-4	IIIB	6.8 µM
CC1(CO)CCC(Cn2cnc3c(N)nc(N)nc32)C1(C)C		CEM		7 µg/mL
C[C@@H](C(=O)O)[C@@H]1CC[C@]2(C)[C@@H]3CC[C@H]([C@](C)(O)CO)[C@]4(CCC(=O)O4)C[C@@H]3CC[C@@]12C		C8166		20.69 µg/mL
CC(C)CCC[C@@H](C)[C@H]1CC[C@H]2[C@@H]3CC[C@H]4C[C@@H](CCC=C(c5cc(Cl)c(O)c(C(=O)O)c5)c5cc(Cl)c(O)c(C(=O)O)c5)CC[C@]4(C)[C@H]3CC[C@]12C		CEM + CEM-SS	RF	3 µM
CC(c1ccccc1)N1CC[C@H](O)[C@@H](O)C1		CEM + CEM-SS	BRU	>100 µg/mL
Nc1ncnc2c1nnn2[C@H]1C[C@H](O)[C@@H](CO)O1		MT-4		>1.2 µM
Nc1ncnc2c1ncn2[C@H]1CC[C@@H](CO)O1		MT-4		6 µM
CC1(CO)CCC(Cn2cnc3c(Cl)nc(N)nc32)C1(C)C		CEM		>4 µg/mL
Cc1cccc(N2C(=O)CSC2c2c(F)cccc2F)c1		MT-4	IIIB	0.688 µM
COc1ccc([C@H](O)[C@H](CO)Oc2ccc(C(=O)CCO)cc2OC)cc1OC				2.78 µg/mL
Nc1nccc2nn([C@H]3C[C@H](O)[C@@H](CO)O3)nc12		MT-4		>396 µM
CC(=O)N1C[C@@H](O)[C@@H](Cc2ccccc2)N(Cc2ccc(O)cc2)C(=O)N1Cc1ccc(O)cc1		MT-4	IIIB	0.17 µM
CCN1CC[C@H](O)[C@@H](O)C1		CEM + CEM-SS	BRU	>100 µg/mL
Cc1ccc(C(=O)Nc2ccc(S(=O)(=O)O)c3cc(S(=O)(=O)O)cc(S(=O)(=O)O)c23)cc1NC(=O)c1cccc(NC(=O)Nc2cccc(C(=O)Nc3cc(C(=O)Nc4ccc(S(=O)(=O)O)c5cc(S(=O)(=O)O)cc(S(=O)(=O)O)c45)ccc3C)c2)c1		ATH8	HTLV-III/LAV	<50 µg/mL
Cc1cn([C@H]2C[C@H](N=[N+]=[N-])[C@@H](CO)O2)c(=O)[nH]c1=O		C8166	A17	0.00422 µg/mL
O=C1c2ccccc2N(Cc2ccccc2)S(=O)(=O)N1Cc1ccccc1		MT-4	IIIB	≥40 µM
CC(=O)Oc1c(OCC(=O)c2ccccc2)ccc2c1C(=O)c1ccccc1C2=O		MT-2		>100 µM
O=C1c2ccccc2N(Cc2ccccc2Cl)S(=O)(=O)N1Cc1ccccc1		MT-4	IIIB	3.4–7.6 µM
C#C[C@@]1(CO)C=C[C@H](n2cc(C)c(=O)[nH]c2=O)O1		MT-2	IIIB	0.2 µM
CCCCN1CC[C@H](O)[C@@H](O)C1		CEM + CEM-SS	BRU	>100 µg/mL
O=S1(=O)N=C(OCc2ccccc2)c2ccccc2N1Cc1ccc(Cl)c(Cl)c1		MT-4	IIIB	>250 µM
Nc1ncnc2c1ncn2[C@H]1CC[C@@H](CO)O1		MT-4		12 µM
CCn1cc(C(=O)O)c(=O)c2cc(F)c(N3CCN(c4ccccc4OC)CC3)c(OC(F)F)c21		MOLT-4		0.061 µM
O=C1c2ccccc2N(Cc2ccc(Cl)cc2)S(=O)(=O)N1Cc1ccccc1		MT-4	IIIB	>50 µM
[N-]=[N+]=N[C@H]1C[C@H](n2cc(Br)c(=O)[nH]c2=O)O[C@@H]1CO		MT-4		0.5 µM
O=C1C=CC(=C(c2ccc(O)cc2)c2ccc(O)cc2)C=C1		MT-4		>2.6 µM
O=C(/C=C/c1ccc(O)c(O)c1)O[C@H]1[C@H](O)[C@@H](O)[C@H](Oc2cc(O)c3c(=O)cc(-c4ccc(O)cc4)oc3c2)O[C@@H]1C(=O)O		MT-4	IIIB	41.86 µg/mL
CC(C)c1c(Cc2ccccc2)n(COCc2ccc(/C(O)=C/C(=O)C(=O)O)cc2)c(=O)[nH]c1=O		CEM	IIIB	0.033 µM
C=C[C@@]1(CO)C=C[C@H](n2cc(C)c(=O)[nH]c2=O)O1		MT-2	IIIB	>100 µM
OC[C@H]1O[C@@H](n2nnc3c(Cl)nccc32)C[C@@H]1O		MT-4		>272 µM
O=C(CCCO)N1C[C@@H](O)[C@@H](Cc2ccccc2)N(Cc2ccc(O)cc2)C(=O)N1Cc1ccc(O)cc1		MT-4	IIIB	0.86 µM
Cc1ccc(C(=O)Nc2ccc(S(=O)(=O)O)c3cc(S(=O)(=O)O)cc(S(=O)(=O)O)c23)cc1NC(=O)c1cccc(NC(=O)Nc2cccc(C(=O)Nc3cc(C(=O)Nc4ccc(S(=O)(=O)O)c5cc(S(=O)(=O)O)cc(S(=O)(=O)O)c45)ccc3C)c2)c1		MT-4		32 µM
CC1(CO)CCC(Cn2nnc3c(N)nc(N)nc32)C1(C)C		CEM		22 µg/mL
CC(C)CCC[C@@H](C)[C@H]1CC[C@H]2[C@]3(C)CC[C@H]4C[C@@H](CCCC(c5cc(Cl)c(O)c(C(=O)O)c5)c5cc(Cl)c(O)c(C(=O)O)c5)CC[C@]4(C)[C@H]3CC[C@@]21C		CEM + CEM-SS	RF	20 µM
O=C1CSC(c2c(F)cccc2Cl)N1c1cccc(Cl)c1		MT-4	IIIB	0.61 µM
CN(C(=O)[C@H](Cc1ccccc1)NC(=O)Cc1c[nH]c2ccc(Cl)cc12)c1ccccc1	T107N		NL4-3	4.5 µM
C[C@H]1C[C@@]2(OC1=O)O[C@@]13O[C@]4(CC[C@@]5(C)C(=O)[C@H](C)[C@@H]2[C@@H]15)C[C@@]12OC(=O)C[C@@H]1O[C@](C)(CO)[C@H]2CCC4=C3O		C8166	IIIB	95.47 µg/mL
O=C1CSC(c2c(F)cccc2Cl)N1c1cc(Cl)cc(Cl)c1		MT-4	IIIB	0.32 µM

A second listing of 5 rows from above:

smiles,changes,cells,strain or isolate,result
C=C[C@@]1(CO)C=C[C@H](n2cc(C)c(=O)[nH]c2=O)O1,,MT-2,IIIB,>100 µM
O=C(/C=C/c1ccc(O)c(O)c1)O[C@H]1[C@H](O)[C@@H](O)[C@H](Oc2cc(O)c3c(=O)cc(-c4ccc(O)cc4)oc3c2)O[C@@H]1C(=O)O,,MT-4,IIIB,41.86 µg/mL
C[C@H]1C[C@@]2(OC1=O)O[C@@]13O[C@]4(CC[C@@]5(C)C(=O)[C@H](C)[C@@H]2[C@@H]15)C[C@@]12OC(=O)C[C@@H]1O[C@](C)(CO)[C@H]2CCC4=C3O,,C8166,IIIB,95.47 µg/mL
Cc1cccc(N2C(=O)CSC2c2c(F)cccc2F)c1,,MT-4,IIIB,0.688 µM
OC[C@H]1O[C@@H](n2nnc3c(Cl)nccc32)[C@H](O)[C@@H]1O,,MT-4,,>359 µM